Earlier results on one compound are cited in publication PMC11232401, “Characterization of antimalarial activity of artemisinin-based hybrid drugs” (Antimicrobial Agents and Chemotherapy, 2024).

This data set deals with J774 cell line. Further details: method as in PMID 31290221, PMID 34832911, PMID 38559731. The note with it: CC50/IC50, CC50 in J774 cell line; cited from earlier work.

`C[C@@H]1CC[C@H]2[C@@H](C)C(=O)O[C@@H]3O[C@@]4(C)CC[C@@H]1[C@]32OO4` [ART, artemisinin]: the Selectivity index is 7463.
